Data published in PMC10287707.
Tags and fusion partners may be left off the protein sequences shown.

Tested on: T1, TIA1 RRM1-3 (Homo sapiens)
T1 sequence (looked up): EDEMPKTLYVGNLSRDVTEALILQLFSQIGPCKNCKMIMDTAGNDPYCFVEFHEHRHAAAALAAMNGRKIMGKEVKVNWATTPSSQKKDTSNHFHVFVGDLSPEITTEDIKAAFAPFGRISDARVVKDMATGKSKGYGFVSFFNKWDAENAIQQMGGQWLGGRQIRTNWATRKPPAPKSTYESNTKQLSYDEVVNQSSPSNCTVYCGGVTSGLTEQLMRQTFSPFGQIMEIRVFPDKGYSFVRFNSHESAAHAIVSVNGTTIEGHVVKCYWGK
Experiment: EMSA
Conditions: 10 mM sodium phosphate pH 6.5, 50 mM NaCl, 1 mM DTT; room temperature, 20 min; 1.2% agarose; protein 0.1-10 uM; RNA annealed in 10 mM Tris pH 7.5, 100 mM KCl; purified recombinant protein; residues 2-274; label: 5' Cy3

Sequence | binding result
UUUCGAUCUCUUGUAGAUCUGUUCUCUAAACGAACUUUAAAAUCU [SL2+SL3] | binds
UUUUUUUUUUU [U11] | binds
